In PubChem BioAssay AID540299 (ICCB-Longwood Screening Facility, Harvard Medical School, 2011):
This is a selection; strong and weak results do not stand in their true shares. Active and inactive are the calls of the source. Rule as the data show it: active = inhibition above about 21% (passing the limit was not always enough); inactive = the rest.

Amino acid sequences for entries named in this document (tags omitted). A change or cut given only in a name is not applied to a line headed by its entry.
UniProt P9WNP5: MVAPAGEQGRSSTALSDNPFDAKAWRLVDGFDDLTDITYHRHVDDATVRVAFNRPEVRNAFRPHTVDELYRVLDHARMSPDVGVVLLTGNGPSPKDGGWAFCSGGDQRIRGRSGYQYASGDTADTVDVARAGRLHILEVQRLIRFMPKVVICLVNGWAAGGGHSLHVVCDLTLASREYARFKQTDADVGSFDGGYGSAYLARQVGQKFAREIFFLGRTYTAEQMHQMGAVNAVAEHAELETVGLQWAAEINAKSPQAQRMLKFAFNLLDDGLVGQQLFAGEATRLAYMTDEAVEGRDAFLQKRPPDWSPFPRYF

biological target: 1,4-dihydroxy-2-naphthoyl-CoA synthase (Mycobacterium tuberculosis (strain ATCC 25618 / H37Rv)) (UniProt P9WNP5); assay: M. tuberculosis MenB inhibitors, primary screen, biochemical, absorbance (AID 540299); conditions: MenB enzyme assay, absorbance read-out; active compounds read high; concentration not given here

Structure (SMILES)	inhibition
CCOP(OCC)N1CCOCC1	active: 28.2%
